Pooled drug test results. Numbers come from NIAID ChemDB, via PubChem.

All rows: enzyme or target tests; species: HIV-1; target: Reverse transcriptase; method: ELISA; read-out: inhibition

Percent inhibition refers to the dose given; in toxicity tests it is the harm to the cells. Rows are shuffled and stem from different studies.

SMILES	tested at	value
CS(=O)(=O)O.O=C(O)c1cn(-c2ccc3ccccc3c2)c2nc(N3CCNCC3)c(F)cc2c1=O	1 µg/mL	50%
C=CCN1C(=O)c2ccnnc2Oc2c(C)cc(C)cc21	33 µM	45%
NC(=O)c1cc2c([nH]c3ccccc32)c(-c2ccc(CO)o2)n1	65.36 µM	26.57%
CS(=O)(=O)O.N[C@H]1CCN(c2cc3c(cc2F)c(=O)c(C(=O)O)cn3-c2cccc3ccccc23)C1	1 µg/mL	39%
CCOC(CC(=O)OCC(C)C)n1ccc(=O)[nH]c1=O	10 µM	46%
COC(/C=C/[C@@H](C)[C@@H](OC(C)=O)[C@H](C)[C@H](OC(C)=O)[C@H](C)[C@@H](OC(C)=O)[C@@H](C)/C=C/C=C(/C)C(=O)NC1=CC(=O)c2c(c(O)c(C)c3oc(C)cc23)C1=O)OC	300 µM	0%
CC(C)(C)c1ccnc(C(=O)Nc2cc(Cl)c(Cl)cc2NC(=O)c2cc(C(C)(C)C)ccn2)c1	6 µM	23%
COC(=O)c1cc(O)c(O)c(O)c1	200 µM	60.1%
Nc1cc(Cc2ccccc2)nc(SCCc2ccccc2)n1	100 µM	0%
CSc1ncc(C(N)=O)c(Nc2ccc3cn[nH]c3c2)n1	0.1 µg/mL	48%
Cc1cc(C)c2c(c1)N(C(C)C)C(=O)c1ccnnc1O2	330 µM	94%
CN1C(=O)c2cc(Cl)nnc2N(C2CC2)c2ncccc21	330 µM	64%
CS(=O)(=O)O.N[C@H]1CCN(c2cc3c(cc2F)c(=O)c(C(=O)O)cn3-c2ccc3ccccc3c2)C1	1 µg/mL	50%
CCN1C(=O)c2cc(Cl)nnc2Oc2ccc(C)cc21	33 µM	2%
O=c1cc(Cc2ccccc2)nc(SCc2ccccc2)[nH]1	100 µM	0%
CS(=O)(=O)O.O=C(O)c1cn(-c2ccc3ccccc3c2)c2cc(N3CCNCC3)c(F)cc2c1=O	1 µg/mL	58%
CN1C(=O)c2ccnnc2N(C2CC2)c2ncccc21	33 µM	37%
O=S(=O)(O)c1ccc(-c2c3nc(c(-c4ccc(S(=O)(=O)O)cc4)c4ccc([nH]4)c(-c4ccc(S(=O)(=O)O)cc4)c4nc(c(-c5ccc(S(=O)(=O)O)cc5)c5ccc2[nH]5)C=C4)C=C3)cc1	6 µM	19%
C[C@@H]1CN(c2nc3c(cc2F)c(=O)c(C(=O)O)cn3-c2cccc3ccccc23)C[C@H](C)N1	1 µg/mL	39%
CCCCOC(=O)CC(OCC)n1cc(C)c(=O)[nH]c1=O	10 µM	58%
CC1CN(c2cc3c(cc2F)c(=O)c(C(=O)O)cn3-c2cccc3ccccc23)CCN1.CS(=O)(=O)O	1 µg/mL	24%
CCOC(CC(=O)OC)n1cc(C)c(=O)[nH]c1=O	10 µM	77%
Cc1cc(C)c2c(c1)N(CC(C)C)C(=O)c1ccnnc1O2	33 µM	47%
C=CCSc1nc(Cc2ccccc2)c(C)c(=O)[nH]1	100 µM	0%
CCOC(CC(=O)OCC(C)C)n1cc(C)c(=O)[nH]c1=O	10 µM	50%
C=CCN1C(=O)c2ccnnc2Oc2ccc(C)cc21	33 µM	29%
O=c1cc(Cc2ccccc2)nc(SCc2ccccc2)[nH]1	100 µM	0%
COC(=O)/C(C)=C\C=C\[C@H](C)[C@H](O)[C@@H](C)[C@@H](O)[C@@H](C)[C@H](OC(C)=O)[C@H](C)[C@H](/C=C/O[C@@]1(C)Oc2c(C)c(O)c3c(c2C1=O)C(=O)C=C(N)C3=O)OC	300 µM	<20%
O=C(O)[C@H]1O[C@@H](Oc2cc3oc(-c4ccc(O)cc4)cc(=O)c3c(O)c2O)[C@H](O)[C@@H](O)[C@@H]1O	433 µM	48%
CC(=O)O[C@@H]([C@@H](C)[C@H](OC(C)=O)[C@H](C)/C=C/C=O)[C@H](C)[C@@H](OC(C)=O)[C@@H](C)/C=C/C=C(/C)C(=O)NC1=CC(=O)c2c(c(O)c(C)c3oc(C)cc23)C1=O	300 µM	0%
Cc1cc(C)c2c(c1)N(CC1CC1)C(=O)c1ccnnc1O2	33 µM	32%
CC(C)(C)c1ccc(CSc2nc(Cc3ccccc3)cc(=O)[nH]2)cc1	100 µM	0%
CC(Sc1nc(Cl)cc(Cc2ccccc2)n1)c1ccccc1	100 µM	0%

Repeating the final 2 entries:

SMILES	tested at	value
CC(C)(C)c1ccc(CSc2nc(Cc3ccccc3)cc(=O)[nH]2)cc1	100 µM	0%
CC(Sc1nc(Cl)cc(Cc2ccccc2)n1)c1ccccc1	100 µM	0%